Results of unrelated studies side by side (data: NIAID ChemDB).

All rows: cytotoxicity tests; cell line: PBMC; endpoint: CC50

CCn: concentration that lowers growth or viability of the cells by n%. Conditions beyond the fields shown may differ between rows.

compound | result
Cc1cn([C@@H]2O[C@H](COP(=O)(N[C@@H](C)C(=O)OC(C)C)Oc3ccccc3)C(F)(F)C2(F)F)c(=O)[nH]c1=O | >100 µM
Cc1cn([C@@H]2O[C@@H](CO)[C@H](O[Si](C)(C)C(C)(C)C)C2(F)F)c(=O)[nH]c1=O | >100 µM
O=C(O)C(=O)/C=C(\O)c1cc(Cc2ccccc2)cn(Cc2ccccc2)c1=O | >200 µM
CC(C)Oc1ccccc1NC(=O)NCCc1ccc2c(n1)NCCC2 | 5.7 µM
FC(F)(F)c1nnc2c3ccccc3c(N3CCc4ccccc4C3)nn12 | >100 µM
COc1cc2ccnc3c2c(c1OS(C)(=O)=O)N(C)C=C3 | 1.8 µM
C#CCn1ccc(=O)n(Cc2cc(C)cc(C)c2)c1=O | 295 µM
Nc1ccn([C@H]2C=C(F)[C@@H](CO)O2)c(=O)n1 | >100 µM
Cc1cn([C@H]2C=C[C@@H](CO)O2)c(=O)[nH]c1=O | >10 µM
COc1ccccc1CNC(=O)C1=Cc2ccncc2CC1 | >177.8 µM
COc1cc(Cn2c(=O)ccn(CC#N)c2=O)cc(OC)c1 | >415 µM
O=C(Cc1ccc(F)c(F)c1)NCCc1ccc2c(n1)NCCC2 | 50 µM
Nc1ccn(CC(F)(F)C(F)(F)C(F)(F)CO)c(=O)n1 | >100 µM
Cc1cccc(-c2c3nc(c(-c4cccc(C)c4)c4ccc([nH]4)c(-c4cccc(C)c4)c4nc(c(-c5cccc(C)c5)c5ccc2[nH]5)C=C4)C=C3)c1 | >100 µM
COc1ncnc2c1ncn2[C@@H]1O[C@H](CO)C[C@@H]1F | >80 µM
COc1cc2c3c(ccnc3c1OC)NC=C2 | <1 µM
OC[C@@H]1C[C@H](F)[C@H](n2cnc3c(Br)ncnc32)O1 | >80 µM
Nc1nc(=O)n([C@H]2O[C@@H](CO)[C@H](O)C2(F)F)cc1F | >100 µM
CC1(C)CCC2=C(O1)c1ccccc1C(=O)C2=O | ~2.5 µM
O=c1[nH]cnc2c1ncn2[C@H]1O[C@@H](CO)[C@H](O)C1(F)F | >100 µM
Nc1ncnc2c1ncn2[C@@H]1OC[C@H](/C=C/P(=O)(O)O)C12CC2 | >100 µM
CC(C)OC(=O)[C@H](C)NP(=O)(OCC(F)(F)C(F)(F)C(F)(F)Cn1cnc2c(N)ncnc21)Oc1ccccc1 | >100 µM
CCCCCCCCCCCCCCCC[n+]1ccc2cc(OC)c(OC)c3c2c1C=CN3 | 1.5 µM
C[C@]1(CO)CO[C@@H](n2cnc3c(=O)[nH]c(F)nc32)C1 | 1 µM
O=c1ccn([C@H]2O[C@@H](CO)[C@H](O)C2(F)F)c(=O)[nH]1 | >100 µM
COc1cc2ccnc3c2c(c1O)N(C)C=C3 | 1.1 µM
N#CC1=C[C@@H](n2cnc3c(=O)[nH]c(N)nc32)O[C@H]1CO | >100 µM
Nc1cc2c(cc1F)CN(c1nn3c(C4CC4)nnc3c3ccccc13)CC2 | 1.73 µM
C[n+]1ccc(-c2c3nc(c(-c4ccccc4)c4ccc([nH]4)c(-c4cc[n+](C)cc4)c4nc(c(-c5ccccc5)c5ccc2[nH]5)C=C4)C=C3)cc1 | >100 µM
CC(C)(C)OC(=O)Nc1cccc(CCNC(=O)Nc2cccc(F)c2)n1 | 25 µM
Cc1nnc2c3ccccc3c(N3Cc4ccccc4C(C)(C)C3)nn12 | 57.7 µM
C[C@@H](NC(=O)c1ccc2cncc(Br)c2n1)c1ccccc1 | 27.3 µg/mL
Cc1cn([C@H]2O[C@@H](CO)[C@H](C#N)[C@@H]2O)c(=O)[nH]c1=O | >100 µM
C#Cc1cn([C@H]2C[C@H](O)[C@@H](CO)O2)c(=O)[nH]c1=O | >100 µM
CCOC(=O)[C@H](C)NP(=O)(OCC(F)(F)C(F)(F)Cn1c(=O)cc[nH]c1=O)Oc1ccccc1 | >100 µM
Cc1c2ccnc(Cl)c2cc2c3cn(C)ccc-3nc12 | >2.5 µM
Nc1nc(=O)n([C@@H]2O[C@@H](CO)[C@H](O)C2(F)F)cc1Cl | >100 µM
Nc1ccn(CC(F)(F)C(F)(F)CO)c(=O)n1 | >100 µM
CCCCCCCCCCCCN1C=Cc2nccc3cc(OC)c(OC)c1c23 | <1 µM
Nc1ccn([C@@H]2S[C@H](CO)C=C2F)c(=O)n1 | >100 µM
N#CC1=C[C@@H](n2ccc(N)nc2=O)O[C@H]1CO | >100 µM
Cc1cc(C)cc(Cn2c(=O)ccn(Cc3ccccc3)c2=O)c1 | 194 µM
Cc1nnc2c3c(c(N4CCc5ccccc5C4)nn12)C1CCC3CC1 | 7.78 µM
O=c1ccn([C@@H]2O[C@H](CO)C(F)(F)C2(F)F)c(=O)[nH]1 | >100 µM
FC(F)(F)Cc1nnc2c3ccccc3c(N3CCc4ccccc4C3)nn12 | >100 µM
Nc1nc2c(ncn2[C@@H]2O[C@H](CO)C(F)(F)C2(F)F)c(=O)[nH]1 | >100 µM
N#C[C@@H]1[C@H](O)[C@@H](n2ccc(N)nc2=O)O[C@H]1CO | >100 µM
COC(=O)[C@H](C)NP(=O)(OC[C@@H]1C=C[C@H](n2cc(C)c(=O)[nH]c2=O)O1)Oc1ccccc1 | >10 µM
OC[C@@H]1C[C@H](F)[C@H](n2cnc3c(I)ncnc32)O1 | >80 µM
N#CC1=C[C@@H](n2cnc3c(=O)[nH]cnc32)O[C@H]1CO | >100 µM
Cc1cc(C)cc(Cn2c(=O)ccn(Cc3c(F)cccc3F)c2=O)c1 | 326 µM
CCOC(=O)[C@H](C)NP(=O)(OCC(F)(F)C(F)(F)Cn1cnc2c(=O)[nH]c(N)nc21)Oc1ccccc1 | >100 µM
CCCCCCCCS(=O)(=O)Oc1c(OC)cc2ccnc3c2c1N(C)C=C3 | 2.3 µM
Oc1ccc2c(c1)CN(c1nn3c(C4CC4)nnc3c3ccccc13)CC2 | 1.3 µM
C=Cn1cc(C(=O)O)c(=O)c2ccc(N3CCN(c4cccc(C(F)(F)F)c4)CC3)cc21 | 5.7 µM
O=c1ccn([C@@H]2O[C@@H](CO)[C@H](O)C2(F)F)c(=O)[nH]1 | >100 µM
c1ccc2c(c1)CCN(c1nn3c(-c4cscn4)nnc3c3ccccc13)C2 | 2.07 µM
C=C1CN(S(=O)(=O)c2ccc(C)cc2)CCCN(Cc2ccccc2)CCCN(S(=O)(=O)c2ccc(C)cc2)C1 | >30 µM
Nc1nc2c(ncn2[C@@H]2OC[C@H](CCP(=O)(O)O)C23CC3)c(=O)[nH]1 | >100 µM
Cc1cn([C@@H]2C=C(C#N)[C@H](CO)O2)c(=O)[nH]c1=O | >100 µM
Nc1nc2c(ncn2[C@@H]2O[C@@H](CO)[C@H](O)C2(F)F)c(=O)[nH]1 | >100 µM
COc1ncc(C#C[Si](C)(C)C)c(OC)n1 | ≥100 µM
Clc1ccc(-c2c3nc(c(-c4ccc(Cl)cc4)c4ccc([nH]4)c(-c4ccc(Cl)cc4)c4nc(c(-c5ccc(Cl)cc5)c5ccc2[nH]5)C=C4)C=C3)cc1 | >100 µM
CCn1cc(C(=O)O)c(=O)c2cc(F)c(N3CCN(c4ccccc4OC)CC3)c(OC(F)F)c21 | 11 µM
O=c1[nH]c(=O)n([C@@H]2O[C@@H](CO)[C@H](O)C2(F)F)cc1Br | >100 µM
COc1cc2ccnc3c2c(c1OCCCCCCCCCOc1c(OC)cc2ccnc4c2c1N(C)C=C4)N(C)C=C3 | 1.1 µM
O=C(NCCc1ccccc1)C1=Cc2ccncc2CC1 | 270 µM
Cc1cn([C@@H]2O[C@H](CO)C(F)(F)C2(F)F)c(=O)[nH]c1=O | >100 µM
Nc1nc(Cl)nc2c1ncn2[C@H]1O[C@H](CO)[C@@H](F)[C@@H]1F | 9.4 µM
C[n+]1cccc(-c2c3nc(c(-c4ccccc4)c4ccc([nH]4)c(-c4ccc[n+](C)c4)c4nc(c(-c5ccccc5)c5ccc2[nH]5)C=C4)C=C3)c1 | >100 µM
Cc1ccccc1Cn1c(=O)ccn(CC#N)c1=O | >490 µM
Cc1cn([C@H]2C[C@H](N=[N+]=[N-])[C@@H](COC(=O)OC[C@@H]3O[C@H]3CO)O2)c(=O)[nH]c1=O | >20 µM
Nc1ncnc2c1ncn2[C@H]1O[C@@H](CO)[C@H](O)C1(F)F | >100 µM
C#Cc1cnc(C(=O)c2ccccc2)nc1C(=O)c1ccccc1 | ≥100 µM
CC(C)Oc1ccccc1CNC(=O)c1ccc2cnccc2n1 | 18.6 µM
Cc1cn([C@H]2O[C@@H](CO)[C@H](O[Si](C)(C)C(C)(C)C)C2(F)F)c(=O)[nH]c1=O | >100 µM
CC(=O)SCCOP(=O)(OCCSC(C)=O)OC[C@@H]1C=C[C@H](n2cc(C)c(=O)[nH]c2=O)O1 | 22 µM
CC(C)OC(=O)[C@H](C)NP(=O)(OC[C@H]1O[C@@H](n2ccc(=O)[nH]c2=O)C(F)(F)C1(F)F)Oc1ccccc1 | >100 µM
CC(C)Nc1cccnc1N1CCN(C(=O)c2cc3cc(F)ccc3[nH]2)CC1 | >10 µM

The first 9 rows once more:

compound | result
Cc1cn([C@@H]2O[C@H](COP(=O)(N[C@@H](C)C(=O)OC(C)C)Oc3ccccc3)C(F)(F)C2(F)F)c(=O)[nH]c1=O | >100 µM
Cc1cn([C@@H]2O[C@@H](CO)[C@H](O[Si](C)(C)C(C)(C)C)C2(F)F)c(=O)[nH]c1=O | >100 µM
O=C(O)C(=O)/C=C(\O)c1cc(Cc2ccccc2)cn(Cc2ccccc2)c1=O | >200 µM
CC(C)Oc1ccccc1NC(=O)NCCc1ccc2c(n1)NCCC2 | 5.7 µM
FC(F)(F)c1nnc2c3ccccc3c(N3CCc4ccccc4C3)nn12 | >100 µM
COc1cc2ccnc3c2c(c1OS(C)(=O)=O)N(C)C=C3 | 1.8 µM
C#CCn1ccc(=O)n(Cc2cc(C)cc(C)c2)c1=O | 295 µM
Nc1ccn([C@H]2C=C(F)[C@@H](CO)O2)c(=O)n1 | >100 µM
Cc1cn([C@H]2C=C[C@@H](CO)O2)c(=O)[nH]c1=O | >10 µM